Results taken from patent US9393216B2, “Vaginal matrices: nanofibers for contraception and prevention of HIV infection” (priority 2012, dated 2016).

Assays:
[1] = Drug stability in fibers stored at room temperature; type: physicochemical; details: PLLA/PEO meshes, at least five months
[2] = mildly acidic pH; cited from earlier work
TZM-bl cells = experiment: Cytotoxicity in TZM-bl cells (CellTiter Blue); type: cell-based; details: compared with media controls
[3] = Maraviroc solubility following release from fibers; type: physicochemical; details: pH 4.0 citrate buffer, absence of polymer or surfactant

## maraviroc [MVC]
[1]
  Initially-loaded drug detected in stored fiber meshes: 0.95%
[2]
  Solubility: > 1 mg/mL
TZM-bl cells
  Toxicity to TZM-bL cells: nontoxic
[3]
  Solubility limit of maraviroc: 21.3 ± 6.4 mg/mL
